A mixed list of measured activities; the numbers were collected in NIAID ChemDB.

Common to all: whole-cell or culture tests; organism: HIV-1; cell line: MT-2; read-out: EC50

ECn is the concentration giving n% inhibition of infection, replication or growth.

{"smiles": "Cc1cn([C@H]2C=C[C@@H](CO)O2)c(=O)[nH]c1=O", "strain": "IIIB", "method": "cytopathic effect / XTT", "result": "4.8 µM"}
{"smiles": "CC1=C(C(=O)Nc2ccc(Cl)c(C(=O)OC(C)C)c2)SCCO1", "strain": "RF", "result": "2 µM"}
{"smiles": "CCN(c1nc(F)ccc1NC(C)(C)C)C1CCN(C(=O)c2cc3cc(NC(=O)N4CCN(C)CC4)ccc3[nH]2)CC1", "strain": "IIIB", "mutations": "K112M K113E V128I M200I H219P I401T R409K D437N L441P", "method": "p24 / ELISA", "result": "0.0261 µM"}
{"smiles": "Cc1ccc(N2C(=O)/C(=C/c3ccc(-c4cccc(C(=O)O)c4)o3)SC2=S)cc1", "strain": "IIIB", "method": "cytopathic effect", "result": "2.517 µM"}
{"smiles": "O=C1N(Cc2cccc(Cn3cncn3)c2)[C@H](Cc2ccccc2)[C@H](O)[C@@H](O)[C@@H](Cc2ccccc2)N1Cc1ccc2[nH]ncc2c1", "strain": "RF", "result": "<0.035 µM"}
{"smiles": "Cc1cn([C@H]2C[C@H](N=[N+]=[N-])[C@@H](CO)O2)c(=O)[nH]c1=O", "strain": "R82150 (RT-L100I)", "mutations": "RT-L100I", "method": "cytopathic effect", "result": "0.06 µM"}
{"smiles": "Cc1c(O)cccc1C(=O)N[C@@H](CSc1ccccc1)[C@H](O)CN1C[C@H]2CCCC[C@H]2C[C@H]1C(=O)NC(C)(C)C", "strain": "IIIB", "method": "cytopathic effect / MTT", "result": "0.0602 µM"}
{"smiles": "O=c1oc2ccccc2c(O)c1C(c1ccccc1)c1c(O)c2ccccc2oc1=O", "strain": "IIIB", "method": "cytopathic effect / neutral red", "result": ">0.25 µM"}
{"smiles": "CC(C)=CCN1Cc2cccc3[nH]c(=S)n(c23)C[C@@H]1C", "strain": "IIIB", "method": "cytopathic effect", "result": "0.2 µM"}
{"smiles": "O=C(O)c1cccc(CN2C(=O)N(Cc3ccc4[nH]ncc4c3)[C@H](Cc3ccccc3)[C@H](O)[C@@H](O)[C@H]2Cc2ccccc2)c1", "strain": "RF", "result": "<0.75 µM"}
{"smiles": "COc1ccc(S(=O)(=O)N(CC(C)C)C[C@@H](O)[C@H](Cc2ccc(OC)c(Cl)c2)NC(=O)O[C@H]2CO[C@H]3OCC[C@H]32)cc1", "strain": "LAI", "method": "MTT", "result": "0.00035 µM"}
{"smiles": "O=C1N(Cc2cccc(-c3ncn[nH]3)c2)[C@H](Cc2ccccc2)[C@H](O)[C@@H](O)[C@@H](Cc2ccccc2)N1Cc1ccc2[nH]ncc2c1", "strain": "RF WT", "result": "<0.024 µM"}
{"smiles": "CC(C)CN(C[C@@H](O)[C@H](Cc1ccccc1)NC(=O)O[C@H]1CCOC1)S(=O)(=O)c1ccc(N)cc1", "strain": "IIIB", "mutations": "R41K", "method": "p24 / ELISA", "result": "0.0473 µM"}
{"smiles": "C[C@H](Cn1cnc2c(N)ncnc21)OCP(=O)(O)O", "strain": "LAI", "method": "RT activity", "result": "0.016 µM"}
{"smiles": "O=c1[nH]c(Br)nc2c1ncn2[C@H]1CC[C@@H](CO)O1", "strain": "LAV", "method": "syncytia", "result": ">20 µM"}
{"smiles": "CC(C)OC(=O)[C@H](C)N[P@@](=O)(CO[C@H](C)Cn1cnc2c(N)ncnc21)Oc1ccccc1", "strain": "IIIB", "method": "XTT / absorbance", "result": "0.06 µM"}
{"smiles": "Nc1ccn([C@H]2CC[C@@H](CO)O2)c(=O)n1", "strain": "IIIB", "method": "cytopathic effect / MTT", "result": "5.924 µM"}
{"smiles": "O=C(Cc1ccccn1)c1cccc(CN2C(=O)N(Cc3ccc4[nH]ncc4c3)[C@H](Cc3ccccc3)[C@H](O)[C@@H](O)[C@H]2Cc2ccccc2)c1", "strain": "RF WT", "result": "<0.015 µM"}
{"smiles": "Cc1cn([C@H]2C[C@H](N=[N+]=[N-])[C@@H](COC(=O)C(=O)N[C@H](C(=O)O)C(C)C)O2)c(=O)[nH]c1=O", "strain": "IIIB", "method": "p24", "result": "0.025 µM"}
{"smiles": "O=C(Cn1cncn1)c1cccc(CN2C(=O)N(Cc3ccc4[nH]ncc4c3)[C@H](Cc3ccccc3)[C@H](O)[C@@H](O)[C@H]2Cc2ccccc2)c1", "strain": "RF", "result": "<0.051 µM"}
{"smiles": "O=C(/C=C/c1ccc(O)c(O)c1)O[C@@H]1C[C@](OC(=O)/C=C/c2ccc(O)c(O)c2)(C(=O)O)C[C@@H](O)[C@H]1O", "strain": "LAI", "method": "cytopathic effect / neutral red", "result": "25 µM"}
{"smiles": "Cc1cn([C@H]2CC(N=[N+]=[N-])[C@@H](OCP(=O)(O)O)O2)c(=O)[nH]c1=O", "strain": "IIIB", "method": "XTT", "result": ">200 µM"}
{"smiles": "Nc1nc2c(ncn2[C@@H]2C=C[C@H](CO)C2)c(=O)[nH]1", "strain": "IIIB", "method": "cytopathic effect / XTT", "result": ">200 µM"}
{"smiles": "Nc1nc(Br)nc2c1ncn2[C@H]1CC[C@@H](CO)O1", "strain": "LAV", "method": "syncytia", "result": "10 µM"}
{"smiles": "Cc1cn([C@H]2C[C@H](N=[N+]=[N-])[C@@H](COC(=O)C(=O)NC(Cc3ccccc3)C(=O)O)O2)c(=O)[nH]c1=O", "strain": "IIIB", "method": "p24", "result": "0.35 µM"}
{"smiles": "NC(=O)c1cc(CN2C(=O)N(Cc3ccc4[nH]ncc4c3)[C@H](Cc3ccccc3)[C@H](O)[C@@H](O)[C@H]2Cc2ccccc2)ccc1F", "strain": "RF", "result": "<0.014 µM"}
{"smiles": "O=c1[nH]cnc2c1ncn2[C@H]1CC[C@@H](CO)O1", "strain": "LAI", "method": "RT activity", "result": "0.35 µM"}
{"smiles": "C[C@H](Cn1cnc2c(N)ncnc21)OCP(=O)(O)N[C@H](C)C(=O)O", "strain": "IIIB", "method": "XTT / absorbance", "result": "10 µM"}
{"smiles": "Fc1cccc(F)c1C1SCc2nc3ccccc3n21", "strain": "IIIB", "method": "cytopathic effect / XTT", "result": "1.32 µM"}
{"smiles": "CC(C)OC(=O)OCOP(=O)(CO[C@H](C)Cn1cnc2c(N)ncnc21)OCOC(=O)OC(C)C", "strain": "IIIB", "method": "XTT / absorbance", "result": "0.05 µM"}
{"smiles": "O=c1[nH]cnc2c1ncn2[C@H]1CC[C@@H](CO)O1", "strain": "IIIB", "method": "cytopathic effect", "result": "3.1 µM"}
{"smiles": "COC(=O)N[C@H](C(=O)N[C@@H](Cc1ccccc1)[C@@H](O)CN(Cc1ccc(-c2ccccn2)cc1)NC(=O)[C@@H](NC(=O)OC)C(C)(C)C)C(C)(C)C", "strain": "IIIB", "mutations": "K112M K113E V128I M200I H219P", "method": "p24 / ELISA", "result": "0.0032 µM"}
{"smiles": "Cc1cn([C@H]2C[C@H](N=[N+]=[N-])[C@@H](CO)O2)c(=O)[nH]c1=O", "strain": "IIIB", "method": "p24", "result": "0.015 µM"}
{"smiles": "CNc1cccc(CN2C(=O)N(Cc3ccc4[nH]ncc4c3)[C@H](Cc3ccccc3)[C@H](O)[C@@H](O)[C@H]2Cc2ccccc2)c1", "strain": "RF", "result": "<0.008 µM"}
{"smiles": "O=c1[nH]c(F)nc2c1ncn2[C@H]1CC[C@@H](CO)O1", "strain": "LAV", "method": "syncytia", "result": ">20 µM"}
{"smiles": "COC(=O)N[C@H](C(=O)N[C@@H](Cc1ccccc1)[C@@H](O)CN(Cc1ccc(-c2ccccn2)cc1)NC(=O)[C@@H](NC(=O)OC)C(C)(C)C)C(C)(C)C", "strain": "97ZA003", "method": "p24 / luminescence", "result": "0.0028 µM"}
{"smiles": "O=C(O)c1cc(-c2ccc(/C=C3\\SC(=S)N(c4cccc(F)c4)C3=O)o2)ccc1Cl", "strain": "IIIB", "method": "cytopathic effect", "result": "2.213 µM"}
{"smiles": "Cc1cn([C@H]2C[C@H](N=[N+]=[N-])[C@@H](CO)O2)c(=O)[nH]c1=O", "strain": "IIIB/LAI", "method": "cytopathic effect / trypan blue", "result": "0.004 µM"}
{"smiles": "O=C(Nc1ncc[nH]1)c1cccc(CN2C(=O)N(Cc3cccc(C(=O)Nc4ncc[nH]4)c3)[C@H](Cc3ccccc3)[C@H](O)[C@@H](O)[C@H]2Cc2ccccc2)c1", "strain": "RF WT", "result": "<0.06 µM"}
{"smiles": "Cc1cn([C@H]2C[C@H](N=[N+]=[N-])[C@@H](COC(=O)C(=O)N[C@@H](CC(C)C)C(=O)O)O2)c(=O)[nH]c1=O", "strain": "IIIB", "method": "p24", "result": "0.05 µM"}
{"smiles": "Cc1cn([C@H]2C=C[C@@H](OCP(=O)(O)O)O2)c(=O)[nH]c1=O", "strain": "IIIB", "method": "cytopathic effect / XTT", "result": "26 µM"}

5 of the rows above, restated:

smiles,strain,mutations,method,result
Cc1cn([C@H]2C=C[C@@H](CO)O2)c(=O)[nH]c1=O,IIIB,-,cytopathic effect / XTT,4.8 µM
Cc1cn([C@H]2C[C@H](N=[N+]=[N-])[C@@H](CO)O2)c(=O)[nH]c1=O,IIIB/LAI,-,cytopathic effect / trypan blue,0.004 µM
Nc1nc(Br)nc2c1ncn2[C@H]1CC[C@@H](CO)O1,LAV,-,syncytia,10 µM
Cc1cn([C@H]2C[C@H](N=[N+]=[N-])[C@@H](CO)O2)c(=O)[nH]c1=O,R82150 (RT-L100I),RT-L100I,cytopathic effect,0.06 µM
Cc1cn([C@H]2C[C@H](N=[N+]=[N-])[C@@H](COC(=O)C(=O)NC(Cc3ccccc3)C(=O)O)O2)c(=O)[nH]c1=O,IIIB,-,p24,0.35 µM

Conditions beyond the fields shown may differ between rows. An empty or dashed field is not shown.